The values that follow are results of earlier work, collected in PMC2858705 (PLoS Pathogens, 2010).

In this series the target is nsp16 nsp16 (SARS coronavirus) (UniProt P0C6X7). As to the kind of experiment: SPR. Particulars: cited from earlier work.

On to nsp10 nsp10 (from UniProt P0C6X7), for which the Kd is 0.25 µM.

As usually defined, the Kd is the equilibrium constant for the complex coming apart.
